Measured values from several laboratories, pooled; numbers as filed in NIAID ChemDB.

All rows: tests in culture; agent: Cryptococcus neoformans

ECn: concentration that inhibits the pathogen or its effect by n%. a–b is a range or a potency band. Neighbouring rows are from separate reports. MIC50, MIC90 and the like: level of inhibition, or share of isolates inhibited. An empty or dashed field is not shown.

SMILES	method	strain	measure	value
Cc1nc2c(s1)C(=O)C(Nc1cccc(F)c1)=C(Cl)C2=O	broth dilution	KCCM 50564	MIC	12.5 µg/mL
Fc1ccccc1CN(Cc1ccc(-c2ccccc2)cc1)n1ccnc1			MIC	33 µM
CC[C@@H]([C@H](C)O)n1ncn(-c2ccc(N3CCN(c4ccc(OC[C@@H]5CO[C@@](Cn6cncn6)(c6ccc(F)cc6F)C5)cc4)CC3)cc2)c1=O		15 strains	MIC50	0.03 µg/mL
Clc1ccc(CN(Cc2ccc(-c3ccccc3)cc2)n2ccnc2)c(Cl)c1			MFC	7.4 µM
Cc1cc(NS(=O)(=O)c2ccc(N)cc2)no1		IFM 51976	MIC	32 µg/mL
Clc1ccc(CC(c2ccc(Cl)s2)n2ccnc2)c(Cl)c1			MIC	1.2 µM
N=C(N)c1ccc(NCCCNc2ccc(C(=N)N)cc2[N+](=O)[O-])c([N+](=O)[O-])c1		114.95	MIC80	6.25 µg/mL
Clc1ccc(C(Cn2ccnc2)OC/C=C/c2ccccc2)cc1			MIC	>128 µg/mL
Cc1ccc(C(Cc2ccc(Cl)cc2Cl)n2ccnc2)s1			MIC	4.7 µM
OCC1c2ccccc2SC1c1ccc(O)cc1O		Farwania	MIC	6 µg/mL
COC(=O)C1CC([C@H]2O[C@@H]3OC(C)(C)O[C@@H]3[C@H]2OCc2ccccc2)=NO1			MIC	50 µg/mL
CN[C@H]1CC[C@@H](c2ccc(Cl)c(Cl)c2)c2ccccc21	broth dilution	UA 491	MFC	8 µg/mL
C[C@H]1[C@H](O)[C@@H](C)/C=C/C=C/C=C/C=C/C=C/C=C/C=C/[C@H](O[C@@H]2O[C@H](C)[C@@H](O)[C@H](N)[C@@H]2O)C[C@@H]2O[C@](O)(C[C@@H](O)C[C@@H](O)CC[C@H](O)[C@@H](O)C[C@@H](O)CC(=O)O[C@H]1C)C[C@H](O)[C@H]2C(=O)O		32 isolates	MIC90	0.25 µg/mL
COc1ccccc1CN(Cc1ccc(-c2ccccc2)cc1)n1ccnc1			MFC	5.5 µM
Nc1ccc(CC(c2ccc(Cl)s2)n2ccnc2)cc1			MIC	37.5 µM
OCCCCCCCCN=C=S	visual reading	CNH99	MIC	<1 µg/mL
COc1nc2c(c(-c3ccc4c(c3)OCO4)c1C#N)CSc1ccccc1-2		93/V	MIC	6 µg/mL
Clc1ccc(CC(c2cccs2)n2ccnc2)c(Cl)c1			MIC	4.7 µM
CCOC1CC([C@H]2O[C@@H]3OC(C)(C)O[C@@H]3[C@H]2OCc2ccccc2)=NO1			MIC	25 µg/mL
Nc1ccc(CC(c2cccs2)n2ccnc2)cc1			MIC	300 µM
CC1(C)O[C@H]2O[C@H](C3=NOC(CO)C3)[C@H](OCc3ccccc3)[C@H]2O1			MIC	25 µg/mL
CC(C)N=C(N)c1ccc2nc(-c3ccc(CCc4ccc(-c5nc6ccc(C(N)=NC(C)C)cc6[nH]5)cc4)cc3)[nH]c2c1		135.95	MIC80	≤0.09 µg/mL
CC(C(O)(Cn1cncn1)c1ccc(F)cc1F)S(C)(=O)=O		Isolate 89-98	MIC	40 µg/mL
CCOC(=O)C1CC([C@H]2O[C@@H]3OC(C)(C)O[C@@H]3[C@H]2OC)=NO1			MIC	25 µg/mL
NC(=O)C1=C(O)OC2=C(CSc3ccccc32)C1c1ccccc1		93/V	MIC	100 µg/mL
COc1ccc2sc3cc4ccccc4[n+](C)c3c2c1	broth dilution	ATCC 90113	EC50	>20 µg/mL
Cc1nc2c(s1)C(=O)C(Nc1ccc(Cl)cc1)=C(Cl)C2=O	broth dilution	KCCM 50564	MIC	1.6 µg/mL
COc1ccc(-c2sc3ccccc3c2CO)c(O)c1		Isolate 25	MIC	12.5 µg/mL
c1cc2nc(CCCCc3nc4ccc(C5=NCCN5)cc4[nH]3)[nH]c2cc1C1=NCCN1		H99	MFC	>100 µg/mL
C[n+]1c2cccc(Cl)c2cc2sc3ccccc3c21	broth dilution	ATCC 90113	EC50	>20 µg/mL
Fc1ccc(CN(Cc2ccc(-c3ccccc3)cc2)n2ccnc2)cc1			MIC	200 µM
COc1cc(O)c2c(c1)C(=O)c1c(cc3c(c1O)-c1c(cc(C)c(C(=O)NC(CO)C(=O)O)c1O)[C@H](OC1OC(C)C(N(C)C)C(OC4OCC(O)C(O)C4O)C1O)[C@H]3O)C2=O		D49	MIC	1.6 µg/mL
c1ccc(C(Cn2ccnc2)OCc2cccc3ccccc23)cc1			MIC	>128 µg/mL
COC(=O)C1OC2(CCCC(OC(C)=O)C(C)C/C=C/c3ccccc3)OC(C(=O)O)(C(OC(=O)CCCCCC/C=C/c3ccccc3)C2O)C1(O)C(=O)O		58063	MIC	25 µg/mL
Cc1noc(NS(=O)(=O)c2ccc(N)cc2)c1C		IFM 40215	MIC	64 µg/mL
COc1nc2c(c(-c3ccccc3)c1C#N)CSc1ccccc1-2		25	MIC	12.5 µg/mL
CCOC(=O)C1CC([C@H]2O[C@@H]3OC(C)(C)O[C@@H]3[C@H]2OCc2ccccc2)=NO1			MIC	12.5 µg/mL
COc1cccc(C2Sc3ccccc3C2CO)c1O		93/V	MIC	50 µg/mL
Cc1ccc(NC2=C(Cl)C(=O)c3nc(C)sc3C2=O)cc1	broth dilution	KCCM 50564	MIC	12.5 µg/mL
CCOc1nc2c(c(-c3ccc4ccccc4c3)c1C#N)CSc1ccc(Cl)cc1-2		Farwania	MIC	100 µg/mL
CC(C)(C)c1ccc(COC(Cn2ccnc2)c2ccccc2)cc1			MIC	128 µg/mL
COc1ccc(C2Sc3ccccc3C2CO)c(O)c1		Farwania	MIC	25 µg/mL
CC(C)(C)c1ccc(COC(Cn2ccnc2)c2ccc(Cl)cc2Cl)cc1			MIC	>128 µg/mL
O=[N+]([O-])c1ccc(CC(c2ccc(Cl)s2)n2ccnc2)cc1			MIC	4.7 µM
CN(C)c1ccc(-c2sc3ccccc3c2CO)cc1		93/V	MIC	25 µg/mL
CC1=CCC[C@@H]2[C@@](C)(CC/C(C)=C/Cn3c[n+](C)c4ncnc(NO)c43)[C@H](C)CC[C@@]12C	resazurin	ATCC 90113	MIC	10 µg/mL
COc1cc(NS(=O)(=O)c2ccc(N)cc2)nc(OC)n1		IFM 40216	MIC	≥256 µg/mL
Cc1nc2c(s1)C(=O)C(Nc1ccc(C#N)cc1)=C(Cl)C2=O	broth dilution	KCCM 50564	MIC	12.5 µg/mL
COc1ccc(NS(=O)(=O)c2ccc(N)cc2)nn1		IFM 49624	MIC	≥256 µg/mL
Cc1nc2c(s1)C(=O)C(Nc1ccc(C)c(C)c1)=C(Cl)C2=O	broth dilution	KCCM 50564	MIC	6.3 µg/mL
COCCOCCOCCOCCOCCOCCOCCOCCOCCOCCOCCOCCOCCOCCOCCNC(=O)[C@H]1[C@@H]2C[C@@H](O[C@@H]3O[C@H](C)[C@@H](O)[C@H](N)[C@@H]3O)/C=C/C=C/C=C/C=C/C=C/C=C/C=C/[C@H](C)[C@@H](O)[C@H](C)[C@H](C)OC(=O)C[C@H](O)C[C@H](O)[C@@H](O)CC[C@H](O)C[C@H](O)C[C@](O)(C[C@@H]1O)O2		3 strains	MIC	0.8–6.4 µg/mL
OCC1c2ccccc2SC1c1cc(Br)ccc1O		93/V	MIC	50 µg/mL
CCC(C)n1ncn(-c2ccc(N3CCN(c4ccc(OC[C@H]5CO[C@](Cn6cncn6)(c6ccc(Cl)cc6Cl)O5)cc4)CC3)cc2)c1=O		373 isolates	MIC50	0.25 µg/mL
Cn1cccc1C(Cc1ccc(Cl)cc1)n1ccnc1			MIC	150 µM
N#CC1=C(N)OC2=C(CSc3ccccc32)C1c1cccc2ccccc12		93/V	MIC	25 µg/mL
N=C(N)c1ccc(OCCCC(O)COc2ccc(C(=N)N)cc2)cc1		119.95	MIC80	0.39 µg/mL
Clc1ccccc1CN(Cc1ccc(-c2ccccc2)cc1)n1ccnc1			MIC	33 µM
COc1ccc2c(c1)C1=C(CS2)C(c2ccc3c(c2)OCO3)C(C#N)=C(N)O1		Farwania	MIC	6 µg/mL
OCC1c2ccccc2SC1c1ccccc1O		Farwania	MIC	12.5 µg/mL

3 of the rows above, restated:

SMILES,method,strain,measure,value
Cc1nc2c(s1)C(=O)C(Nc1ccc(C)c(C)c1)=C(Cl)C2=O,broth dilution,KCCM 50564,MIC,6.3 µg/mL
NC(=O)C1=C(O)OC2=C(CSc3ccccc32)C1c1ccccc1,,93/V,MIC,100 µg/mL
Clc1ccc(CC(c2cccs2)n2ccnc2)c(Cl)c1,,,MIC,4.7 µM